# Data as given in PubChem BioAssay AID2629 (Broad Institute, 2010).
# Chains of the proteins cited; added tags and fusions are not shown.
# UniProt Q9QR71, whole entry: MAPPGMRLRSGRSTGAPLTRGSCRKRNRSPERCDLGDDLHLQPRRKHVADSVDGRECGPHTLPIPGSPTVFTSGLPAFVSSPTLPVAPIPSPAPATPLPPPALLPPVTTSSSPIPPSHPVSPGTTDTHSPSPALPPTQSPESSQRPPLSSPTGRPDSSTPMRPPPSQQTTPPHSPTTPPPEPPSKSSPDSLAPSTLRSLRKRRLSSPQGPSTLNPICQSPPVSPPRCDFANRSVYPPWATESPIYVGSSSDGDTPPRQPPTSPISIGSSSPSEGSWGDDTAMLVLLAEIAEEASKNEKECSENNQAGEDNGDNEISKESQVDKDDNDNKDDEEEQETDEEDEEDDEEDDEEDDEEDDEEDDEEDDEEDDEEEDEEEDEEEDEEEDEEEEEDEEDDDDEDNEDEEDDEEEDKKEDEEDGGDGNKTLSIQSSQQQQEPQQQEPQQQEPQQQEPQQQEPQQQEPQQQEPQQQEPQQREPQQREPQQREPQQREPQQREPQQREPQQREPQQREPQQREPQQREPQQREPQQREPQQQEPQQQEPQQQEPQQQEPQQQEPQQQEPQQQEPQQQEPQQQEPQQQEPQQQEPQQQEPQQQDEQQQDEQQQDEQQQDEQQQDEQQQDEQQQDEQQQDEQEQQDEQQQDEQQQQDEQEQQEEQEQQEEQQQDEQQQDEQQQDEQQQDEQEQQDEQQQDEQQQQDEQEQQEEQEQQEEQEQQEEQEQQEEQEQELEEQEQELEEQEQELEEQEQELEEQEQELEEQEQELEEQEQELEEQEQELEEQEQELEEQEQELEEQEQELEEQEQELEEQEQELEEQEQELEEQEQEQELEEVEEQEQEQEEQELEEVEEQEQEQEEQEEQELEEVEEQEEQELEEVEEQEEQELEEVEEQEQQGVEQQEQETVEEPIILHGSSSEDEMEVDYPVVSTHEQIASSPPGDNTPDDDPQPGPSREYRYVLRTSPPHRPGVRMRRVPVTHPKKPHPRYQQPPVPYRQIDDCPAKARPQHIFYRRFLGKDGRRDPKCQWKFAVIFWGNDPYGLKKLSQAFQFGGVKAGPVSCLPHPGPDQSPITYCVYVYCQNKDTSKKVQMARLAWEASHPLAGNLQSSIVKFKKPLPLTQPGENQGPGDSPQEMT
# The list shows a part of the results, in another mix than the full data. Calls of active or inactive are those of the source. No stated cut-off is given here; in the data, active means inhibition mostly above about 10% (no sharp cut-off); inactive means mostly below about 6.7%.
# Target: Protein LANA1 (Human herpesvirus 8 type P (isolate GK18)) (UniProt Q9QR71)
# Assay: blockers of LANA interaction with H2A/H2B – biochemical, FP readout, HTS, primary screen (AID 2629)
# Conditions: cell-free LANA-H2A/H2B peptide, fluorescence polarization; active compounds read high; concentration not given here
row,SMILES,inhibition
1,COP1(=S)c2c(C)nn(CCC#N)c2N=C(c2ccc(F)cc2)N1C (configuration not stated),inactive: -3.27%
2,CP(=O)(Nc1ccc(SC(F)(F)F)cc1)Oc1ccc(Cl)cc1 (configuration not stated),inactive: -5.98%
3,Cc1cccc(C)c1OP(C)(=O)Nc1ccc(SC(F)(F)F)cc1 (configuration not stated),inactive: -3.3%
4,CP(=O)(Oc1ccccc1)OC(c1ccccc1)C(F)(F)F (configuration not stated),inactive: -0.169%
5,CP(=O)(NC(=O)Nc1ccccc1)Oc1ccccc1 (configuration not stated),inactive: -1.92%
6,O=C(COc1ccccc1)OC1CN2CCC1CC2 (configuration not stated),inactive: -0.136%
7,CCc1ccc(OP(C)(=O)N2CCN(c3ccc([N+](=O)[O-])cc3)CC2)cc1 (configuration not stated),inactive: -8.48%
8,O=C(Nc1ccncc1[N+](=O)[O-])c1ccc([N+](=O)[O-])cc1[N+](=O)[O-],inactive: 1.8%
9,Cc1cc(C)cc(OP(C)(=O)Nc2ccc(SC(F)(F)F)cc2)c1 (configuration not stated),inactive: -2.92%
10,O=C(OC1CN2CCC1CC2)c1cccc([N+](=O)[O-])c1 (configuration not stated),inactive: 1.16%
11,CCOP(C)(=S)SCC(=O)NC(C)C(=O)O (configuration not stated),inactive: -4.2%
12,O=[N+]([O-])c1cc([N+](=O)[O-])c(O)c([N+](=O)[O-])c1.c1ccc(Oc2ccncc2)cc1,inactive: 3.01%
13,CCOC(=O)c1ccc(NC(=O)C(C)(CCl)SC)cc1 (configuration not stated),inactive: 0.773%
14,CCOC(=O)c1ccc(NP(C)(=O)Oc2ccc(OC)cc2)cc1 (configuration not stated),inactive: -4.22%
15,CCC(C)N(CC(C)C)C(=S)SC(NC(C)=O)C(Cl)(Cl)Cl (configuration not stated),inactive: 1.89%
16,CP(=O)(Nc1ccccn1)Oc1ccc(Cl)cc1 (configuration not stated),inactive: 0.908%
17,CCOC(=O)Nc1ccc([As](=O)(O)O)c(O)c1,inactive: -1.48%
18,Cc1cc(SC(NC(=O)c2ccccc2)C(Cl)(Cl)Cl)nc(C(C)C)n1 (configuration not stated),inactive: -1.29%
19,CP(=S)(Nn1cnnc1)Oc1ccccc1 (configuration not stated),inactive: 0.59%
20,CCOC(=O)Nc1cccc([As](=O)(O)O)c1,inactive: -1.11%
21,Cc1cc(SC(NC=O)C(Cl)(Cl)Cl)ncn1 (configuration not stated),inactive: -1.17%
22,O=P(Nc1ccccn1)(c1cccc2ccccc12)c1cccc2ccccc12,inactive: 1.16%
23,COc1ccccc1OP(C)(=O)Nc1ccccc1 (configuration not stated),inactive: 3.09%

row,SMILES,inhibition
1,CP(=O)(Nc1ccccc1Br)Oc1ccccc1 (configuration not stated),inactive: 10%
2,O=[N+]([O-])c1ccc(Nc2ccc(Oc3ccc([N+](=O)[O-])cc3[N+](=O)[O-])cc2)c([N+](=O)[O-])c1,inactive: 2.31%
3,O=[N+]([O-])c1cc([N+](=O)[O-])c(Nc2cccnc2)c([N+](=O)[O-])c1,inactive: -5.64%
4,C[As](=O)(O)c1cccc(C(=O)O)c1,inactive: 0.413%
5,O=[As](O)(c1ccc(O)cc1)c1ccccc1O,inactive: 5.96%
6,COc1cc(C(=O)NCC2(N3CCOCC3)CCCCC2)ccc1OCC(C)C,inactive: -0.769%
7,Cc1ccc(OP(=O)(Nc2ccc([N+](=O)[O-])cn2)Oc2ccc(C)cc2)cc1,inactive: -0.0967%
8,CC(C)(C)c1ccc(OP(C)(=O)Nc2ccc(SC(F)(F)F)cc2)cc1 (configuration not stated),inactive: -2.05%
9,O=[N+]([O-])c1ccc2c(c1)C=Nc1ccccc1O2,inactive: 4.02%
10,Cc1ccc2nc3c(c(C)c2c1)CC(C(Cl)Cl)S3 (configuration not stated),inactive: 1.51%
11,CCOC(=O)c1ccc(NP(C)(=O)Oc2ccccc2)cc1 (configuration not stated),inactive: -2.77%
12,ClCCSc1nnc(-c2cccnc2)o1,inactive: 1.56%
13,COc1ccccc1OP(C)(=O)Nc1ccc(C)cc1 (configuration not stated),inactive: 1.93%
14,CC(C)c1ccc(OP(=O)(Nc2ccccn2)Oc2ccccc2F)cc1 (configuration not stated),inactive: -14.2%
15,Cc1ccc(NP(C)(=O)Oc2ccccc2)c(C)c1 (configuration not stated),inactive: 8.81%
16,CC(C)NC(=O)NP(=O)(Oc1ccccc1)Oc1ccccc1,inactive: 0.177%
17,COc1ccccc1OP(C)(=O)Nc1cc(Cl)ccc1C (configuration not stated),inactive: 2.15%
18,CCN(CC)C(=S)SC(NC=O)C(Cl)(Cl)Cl (configuration not stated),inactive: -4.19%
19,COc1ccc(OP(C)(=O)Nc2cccc(F)c2)cc1 (configuration not stated),inactive: 3.55%
20,O=[N+]([O-])c1cc([N+](=O)[O-])c(-c2ccn[nH]2)s1,inactive: -0.476%
21,Cc1cc(C)cc(OP(C)(N)=O)c1 (configuration not stated),inactive: 1.09%
22,Cc1c2c(nc3ccccc13)SC(C(Cl)Cl)C2 (configuration not stated),inactive: 5.96%
23,O=C(OC1CN2CCC1CC2)C12CC3CC(CC(C3)C1)C2 (configuration not stated),inactive: 2.83%

row,SMILES,inhibition
1,CCN(CC)CCCOC(=O)C(O)(c1ccccc1)c1ccccc1,inactive: 0.642%
2,Cc1cc(=O)[nH]c(N[N+](=O)[O-])n1,inactive: 1.69%
3,COc1ccc2nc(NP(=O)(c3ccccc3)c3ccccc3)sc2c1,inactive: -0.216%
4,COc1cc(I)ccc1[As](=O)(O)O,inactive: -1.56%
5,COc1ccc(N/C(=N/P(=O)(N2CCOCC2)N2CCOCC2)N2CCOCC2)cc1,inactive: 2.33%
6,O=C(OC1CN2CCC1CC2)c1ccc(Cl)cc1 (configuration not stated),inactive: 3.8%
7,O=[As](O)(O)c1cccnc1,inactive: -6.06%
8,COc1cc(C(=O)NCC2(N3CCOCC3)CCCCC2)cc(Cl)c1OC(C)C,inactive: -0.678%
9,CS(=O)(=O)c1ccc(Cl)c(NC(=O)COC(=O)C(O)(c2ccccc2)c2ccccc2)c1,inactive: 1.42%
10,COc1ccccc1OP(C)(=O)Nc1cccc(Br)c1 (configuration not stated),inactive: 7.57%
11,Cc1cccc(OCC(=O)OC2CN3CCC2CC3)c1 (configuration not stated),inactive: -1.93%
12,O=[As](O)(c1cccc(O)c1)c1cccc(O)c1,inactive: -1.49%
13,Cc1cc(C)cc(OP(C)(=O)Nc2ccc(C)cc2C)c1 (configuration not stated),inactive: -6.23%
14,CCOC(=O)c1ccc(NP(C)(=O)Oc2cc(C)cc(C)c2)cc1 (configuration not stated),inactive: -3.89%
15,Cc1cc(C)cc(OP(C)(=O)Nc2ccccn2)c1 (configuration not stated),inactive: 3.2%
16,CP(=O)(Nc1cccc(Br)c1)Oc1ccccc1 (configuration not stated),inactive: -4.65%
17,Nc1cccc2c([As](=O)(O)O)cccc12,inactive: -5.44%
18,Cc1ccc(NCCc2c([N+](=O)[O-])cc([N+](=O)[O-])cc2[N+](=O)[O-])cc1,inactive: 4.15%
19,Cc1ccc(C)c(NP(C)(=O)Oc2ccccc2)c1 (configuration not stated),inactive: -1.92%
20,CCCOP(=S)(Nc1nc(N)cc(=O)[nH]1)OCCC,inactive: -2.25%
21,CCOP(=O)(Nc1cccc2ccccc12)OCC,inactive: 2.17%
22,O=C(O)c1cccc(Nc2c([N+](=O)[O-])cc([N+](=O)[O-])cc2[N+](=O)[O-])c1,inactive: -2.52%
23,CCOP1(=S)c2c(C)nn(CCC#N)c2N=C(c2ccccc2F)N1C (configuration not stated),inactive: -2.86%

row,SMILES,inhibition
1,O=P(Nc1nccs1)(Oc1ccccc1)Oc1ccccc1,inactive: -2.47%
2,O=P(Nc1nccs1)(c1ccccc1)c1nc2ccccc2s1 (configuration not stated),inactive: -8.38%
3,CS(=O)(=O)c1cc([N+](=O)[O-])c2no[n+]([O-])c2c1,inactive: 18.8%
4,O=C(O)COc1ccc([As](=O)(O)O)cc1[N+](=O)[O-],inactive: 7.85%
5,Nc1ccccc1[As](=O)(O)c1ccccc1,inactive: 6.73%
6,NC(=O)Nc1ccc([As](=O)(O)O)cc1,inactive: -4.59%
7,N#CCCN(C(=O)COC(=O)C(O)(c1ccccc1)c1ccccc1)c1ccc(F)cc1,inactive: 0.449%
8,CN(C(=O)Cc1ccccc1)[C@@H]1CC[C@]2(CCCO2)C[C@H]1N1CCCC1,inactive: 1.71%
9,CCOP1(=S)c2c(C)nn(CCC#N)c2N=C(c2ccc(F)cc2)N1C (configuration not stated),inactive: -3.4%
10,O=[N+]([O-])c1ccc2c(c1)nnn2O,inactive: -0.375%
11,CN(C)C(=O)c1cc([N+](=O)[O-])cc2c1-c1c(cc([N+](=O)[O-])cc1[N+](=O)[O-])C2=O,inactive: 4.61%
12,CC1=NCCc2c1[nH]c1ccccc21.O=[N+]([O-])c1cc([N+](=O)[O-])c(O)c([N+](=O)[O-])c1,inactive: 0.561%
13,CN(C(=O)Cc1ccc(Cl)c(Cl)c1)[C@H]1CC[C@@]2(CCCO2)C[C@@H]1N1CCCC1,inactive: -1.71%
14,Cc1nn(-c2ccccc2)c2c1P(=O)(N1CCOCC1)N(C)C(c1ccccc1)=N2 (configuration not stated),inactive: 6.31%
15,Cc1ccc(C(=O)OC2CN3CCC2CC3)cc1 (configuration not stated),inactive: -3.26%
16,CC1CCC(C(C)C)C(OP(=O)(Nc2ccccn2)c2ccccc2)C1 (configuration not stated),inactive: -0.163%
17,COc1cc(C2NCCC3(OCCO3)C2(C)C)cc(OC)c1OC.O=[N+]([O-])c1cc([N+](=O)[O-])c(O)c([N+](=O)[O-])c1 (configuration not stated),inactive: -3.33%
18,CC1=C2N=C(C=C3N=C(C(C)=C4[N-][C@@](C)([C@@H]5N=C1[C@](C)(CCC(=O)NC[C@@H](C)OP(=O)([O-])O[C@H]1[C@@H](O)[C@@H](n6cnc7cc(C)c(C)cc76)O[C@@H]1CO)[C@H]5CC(N)=O)[C@@](C)(CC(N)=O)[C@@H]4CCC(N)=O)[C@@](C)(CC(N)=O)[C@@H]3CCC(N)=O)C(C)(C)[C@@H]2CCC(N)=O.[C-]#N.[Co+3],inactive: -3.01%
19,CN(C)C1(CNC(=O)c2ccc(S(C)(=O)=O)cc2)CCCCC1,inactive: 1.1%
20,O=[N+]([O-])c1cc([N+](=O)[O-])c(Nc2nnnn2CCO)c([N+](=O)[O-])c1,inactive: -1.1%
21,CCOC(=O)C(CC)C1=NC(C)(C)Cc2ccccc21.O=[N+]([O-])c1cc([N+](=O)[O-])c(O)c([N+](=O)[O-])c1 (configuration not stated),inactive: 0.245%
22,O=C(/C=C/c1ccccc1)OC1CN2CCC1CC2 (configuration not stated),inactive: 1.51%
23,CN1CCCCC1COC(=O)C1(O)c2ccccc2CCc2ccccc21 (configuration not stated),inactive: 5.71%
